Test results published in PMC9115767 (European journal of medicinal chemistry, 2021).

Molecular target: HIV-1 NL4-3 CA hexamer (Human immunodeficiency virus type 1 group M subtype B, UniProt P12493, A146C/E177C/M317A/W316A)
Assay: biochemical
Format: binding

Question: Which Kd does the source give for `COc1ccc(N(C)C(=O)[C@H](Cc2cc(F)cc(F)c2)NC(=O)CN2CCN(CC(=O)N[C@@H](Cc3cc(F)cc(F)c3)C(=O)N(C)c3ccc(OC)cc3)C(=O)C2)cc1` [Q-c4, (2S,2′S)-2,2'-((2,2'-(2-oxopiperazine-1,4-diyl)bis(acetyl))bis(azanediyl)) bis(3-(3,5-difluorophenyl)-N-(4-methoxyphenyl)-N-methylpropanamide)] here?
Answer: ~8 µM
